The source of these data is US7125986B2, “Penicillanic acid derivative compounds and methods of making” (Southern Methodist University Foundation for Research, priority 1997, dated 2006).

Sequences of proteins named here, by UniProt entry; tags and fusion partners are left off. Residues count along the entry.
UniProt P05364, 21-381 limits assumed: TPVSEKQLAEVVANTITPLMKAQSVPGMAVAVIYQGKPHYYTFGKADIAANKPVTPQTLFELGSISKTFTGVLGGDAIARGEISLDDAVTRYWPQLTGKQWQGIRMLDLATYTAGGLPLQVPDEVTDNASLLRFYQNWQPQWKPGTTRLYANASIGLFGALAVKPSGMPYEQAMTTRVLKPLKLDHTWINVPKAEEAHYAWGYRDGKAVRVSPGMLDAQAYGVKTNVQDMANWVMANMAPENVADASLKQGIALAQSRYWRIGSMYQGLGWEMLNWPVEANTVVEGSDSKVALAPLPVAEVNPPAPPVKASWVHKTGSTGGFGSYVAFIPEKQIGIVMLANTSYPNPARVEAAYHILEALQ
UniProt P62593, 24-286 limits assumed: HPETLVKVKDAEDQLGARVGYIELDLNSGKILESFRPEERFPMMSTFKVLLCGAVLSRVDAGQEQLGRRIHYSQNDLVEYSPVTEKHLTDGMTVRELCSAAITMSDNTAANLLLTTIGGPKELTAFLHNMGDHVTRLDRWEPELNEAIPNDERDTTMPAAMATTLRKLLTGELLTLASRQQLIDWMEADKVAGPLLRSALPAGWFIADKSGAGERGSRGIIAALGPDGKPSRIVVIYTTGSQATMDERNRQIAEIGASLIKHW

The target in test [1] is β-lactamase of Enterobacter cloacae P99 (Enterobacter cloacae, UniProt P05364). As to the kind of experiment: β-lactamase inhibition, nitrocefin hydrolysis (P99). As to conditions: read-out: IC50 (uM) Ent. cloacae P99; 10 minute incubation of enzyme (2.56 nM) and inhibitor; nitrocefin substrate; tested form: disodium salt. In kind it is biochemical.
The target in the next test is TEM-1 β-lactamase (Escherichia coli, UniProt P62593). Briefly: β-lactamase inhibition, nitrocefin hydrolysis (TEM-1). Type of test: biochemical. To be noted: read-out: IC50 (uM) TEM-1; 10 minute incubation of enzyme (2.56 nM) and inhibitor; nitrocefin substrate; tested form: disodium salt.

The IC50 is the concentration at which inhibition is half-maximal. Take `CC1(C)[C@H](C(=O)O)N2C(=O)/C(=C/C(=O)O)[C@H]2S1(=O)=O`: the values for the half-maximal inhibitory concentration (IC50) (in test [1]; on TEM-1 β-lactamase) were 0.75 µM and 2.51 µM, respectively.
